One test has as its system HIV. Put plainly: EC50 of Table 1 (antiviral activity, method not described). Format: cell-based.
Another test addresses HIV protease (Human immunodeficiency virus type 1 group M subtype B, UniProt P04585). Description: HIV protease enzyme assay (fluorogenic substrate). The conditions noted are these: concentration reducing HIV protease activity by 50%; substrate 2-aminobenzoyl-Ile-Nle-Phe(p-NO2)-Gln-ArgNH2, pH 6.4. In kind it is biochemical. The procedure: The compounds of the present invention are effective HIV protease inhibitors. […] The calculated IC50 indicates the concentration providing inhibition of 50%, i.e., the concentration at which the inhibitor compound reduces enzyme activity by 50%). The enzyme method is described below. The substrate is 2-aminobenzoyl-Ile-Nle-Phe(p-NO2)-Gln-ArgNH2. The positive control is MVT-101 [Miller, M. et al, Science, 246, 1149 (1989)]. The assay conditions are as follows: Assay buffer: 20 mM sodium phosphate, pH 6.4
The above described substrate is dissolved in DMSO, then diluted 10 fold in assay buffer. Final substrate concentration in the assay is 80 IM.
HIV protease is diluted in the assay buffer to a final concentration of glycerol is 18%. The test compound is dissolved in DMSO and diluted in DMSO to 10× the test concentration; […] of the enzyme preparation is added, the materials mixed and then the mixture is incubated at ambient temperature for 15 minutes. The enzyme reaction is initiated by the addition of […] of substrate. The increase in fluorescence is monitored at 4 time points (0, 8, 16 and 24 minutes) at ambient temperature. Each assay is carried out in duplicate wells.

As to `CC(C)CCN(C[C@@H](O)[C@H](Cc1ccccc1)NC(=O)C1CCCS(=O)(=O)C1)C(=O)NC(C)(C)C` (some centres unmarked), in the test on HIV, the EC50 worked out at 63 nM. The molecule further yielded an IC50 against HIV protease of 13 nM.

One may read the EC50 as the concentration that produces a half-maximal response. Broadly, the IC50 is the point on the concentration scale where inhibition reaches its midpoint. Lower therefore signals greater potency.
